Test system: porcine IgG
Experiment: N-terminal Edman sequencing of the 32 kDa IgG degradation product
Type: biochemical, pig

B1: IgdEporcinus: IgdE isolated from S. porcinus strain DSM20725, SEQ ID NO: 5 (protein, listed as Streptococcus porcinus)
chain: AVLARENSNSGQLHPEARQIKAVDFQEFSKKLKEEISENQQFHVFKLGMNNYYRSGIRINELNNLATEHDFILVNDHASHKKYDVPHIFIMNKGDVIVPSKEKYDEQMREVKFAGDQPNAQRQRIHALFEIGLDSNKRQLLNAAGLGTAENTLAKVDGFTIYSHGLTVDNKYYEDYIRFNKNENINITKERFTANDNLIHNLITESTAKVQTNDRDKVKAFVMYVANHTIYDWIAANNAVSNISDVNYYLGSDLFSITERKKAMCVGFSTTAARAFNMLGIPAYVVVGKNAQGVDHATARAYYNGKWHTIDGTGFINDKASRSTIYSENHFYSIGEDSYNIVDVNDEQIAFDKNYMKIDKVFEEWAQKQPTADLLLINKDKSLVPSNYVAYVAPVIVDNNRKGSLTQIYQNLKQVMESSSQKASLTSLLNTATADIAKLQTSSQLTQEDYNQIQNSMKSVLSFFWQLDKDSATNFENSEDYKKYLTETKNAGN
  N-terminal sequence of the 32 kDa degradation product of porcine IgG (cleavage site): CPICPACE

B2: IgdEpseudoporcinus: IgdE isolated from S. pseudoporcinus strain ATCC BAA-1381, SEQ ID NO: 9 (protein, listed as Streptococcus pseudoporcinus)
chain: RENENVRQLQSENKQMKAVNLQEFSEKLKGEIAENQQFHIFKLGLNNYYIGGVRINELSDLAKNHDFIMIDNRATHNKYGVPHIIIMNKDDVIVHNQEDYNKEMAELTFAGDKPIQSDSYLPQKKRIHALFEIGLDSNRRQLLNAAGLKTPENSVIELDTFKIYSHGLAVDNKYYDEYSHFNNNTNVNITKQRFTENDNLIHNLITTSTAKDQPTDRDKVKTFVMYVANHTIYDWNAANNAVSNISDVNYYLGSDLFSITERKKAMCVGFSTTAARAFNMLGIPAYVVEGKNAQGVDHATARVYYNGKWHTIDGTGFINGNRTRSTLYTESHFRSVGEDSYQLVGLNEDIPFDRNYMKIDKVYEEWAPKQKTADLLLVNKDKSLVGLDRVAYVEPVYVDKNRQDALTQIYKKLKETMESSSKKNPSSGGFSSLLGSASSDIAKLEGSSQLTQEEYDKIHRSMTSILTFFAQLDKDAAEAFEKGNDYKNYLATTKHAQ
  N-terminal sequence of the 32 kDa degradation product of porcine IgG (cleavage site): CPICPACE
